Compound potency records, mixed from different reports. Data source: NIAID ChemDB in PubChem.

All rows: growth or infection tests; species: Mycobacterium tuberculosis

Neighbouring rows are from separate reports.

structure,changes,dose,strain or isolate,cell line,read-out,read by,result
CN(C)P1(=O)N(c2ccc(Cl)cc2)P(=O)(N(C)C)N1c1ccc(Cl)cc1,-,-,H37Rv,-,MIC,BACTEC,≥12.5 µg/mL
C[C@H]1COc2c(N3CCN(C)CC3)c(F)cc3c(=O)c(C(=O)O)cn1c23,-,-,8S,-,MIC,-,0.5 µg/mL
O=C(O)c1ccc(I)cc1O,-,-,H37Rv,-,MIC,-,50 µg/mL
Clc1nc(Sc2ccccc2Cl)c2[nH]cnc2n1,-,-,H37Ra,-,MIC,-,>12.8 µg/mL
C(CNC12CC3CC(CC(C3)C1)C2)NCC12CC3CC(CC(C3)C1)C2,-,-,-,-,MIC,-,18.8 µM
CCCCc1ccc(S(=O)(=O)Nc2ccc(N)cc2)cc1,-,-,H37Rv,-,MIC,-,100 µg/mL
Cc1cccc(CSc2ncccn2)c1,-,-,H37Rv,-,MIC90,-,>6.25 µg/mL
O=C(c1ccc(O)cc1)c1ccc(O)cc1,-,-,H37Rv,-,MIC,-,100 µg/mL
COc1cc(OC)c2nc3occc3c(OC)c2c1,-,-,H37Rv,-,MIC bound,BACTEC,>12.8 µg/mL
CC[C@H]1OC(=O)[C@H](C)[C@@H](O[C@H]2C[C@@](C)(OC)[C@@H](O)[C@H](C)O2)[C@H](C)[C@@H](O[C@@H]2O[C@H](C)C[C@H](N(C)C)[C@H]2O)[C@](C)(O)C[C@@H](C)C(=O)[C@H](C)[C@@H](O)[C@]1(C)O,-,-,MDR,-,MIC50,-,>8 µg/mL
CN[C@@H]1[C@H](O[C@H]2[C@H](O[C@H]3[C@H](O)[C@@H](O)[C@H](N=C(N)N)[C@@H](O)[C@@H]3N=C(N)N)O[C@@H](C)[C@]2(O)C=O)O[C@@H](CO)[C@H](O)[C@H]1O,-,-,TN4826 (H),-,MIC,-,>2 µg/mL
NC1CCN(c2c(F)cc3c(=O)c(C(=O)O)cn(C4CC4)c3c2Cl)C1,-,-,ATCC 35830,-,MIC,-,0.125 µg/mL
CC(C)(C)c1ccc(CSc2nc(=O)[nH]c3nc[nH]c23)cc1,-,-,H37Ra,-,MIC,-,>12.8 µg/mL
C[C@@H]1ON2CCC[C@H]2[C@H]1C(=O)N1C2CC3CCC2(CS1(=O)=O)C3(C)C,-,12.5 µg/mL,H37Rv,-,inhibition,BACTEC,0%
COc1ccc(CNCCNC23CC4CC(CC(C4)C2)C3)c(OC)c1,-,-,-,-,MIC,-,25 µM
OC(CCN1CC2CCC(CC2)C1)(Cc1ccccc1)c1cccs1,-,6.25 µg/mL,H37Rv,-,inhibition,-,10%
O=C1CC(C(=O)O)=NN1,-,-,H37Rv,-,MIC,-,>100 µg/mL
O=C1CC(c2ccccc2)Oc2cc(Br)ccc21,-,-,H37Rv,-,EC50,-,>12.5 µg/mL
COc1ccc(O)c(N=Nc2ccccc2C(=O)O)c1,-,-,H37Rv,-,MIC,-,50 µg/mL
CCCCCCCCCCCNCCNCCc1ccccc1,-,-,-,-,MIC,-,25 µM
COC(=O)C1C2CC3c4[nH]c5cc(OC)ccc5c4CCN3CC2CC(OC(=O)c2cccc(N)c2)C1OC,-,12.5 µg/mL,H37Rv,-,inhibition,BACTEC,20%
Nc1nc(N)nc(N)n1,-,-,H37Rv,-,MIC,-,>100 µg/mL
C[C@H]1COc2c(N3CCN(C)CC3)c(F)cc3c(=O)c(C(=O)O)cn1c23,-,-,Isolate 2,-,MIC,-,16 µg/mL
CCCCCc1cc(OC)c2ccccc2n1,-,-,MT4,-,MIC,-,12.5 µg/mL
NNC(=O)c1ccncc1,Rifampicin- and isoniazid-resistant,-,Clinical isolate 15552,-,MIC,broth dilution,>10 µM
CCOC(=O)c1ccc(Br)c([N+](=O)[O-])c1,-,-,H37Rv,-,MIC,-,>100 µg/mL
O=C1C(Cl)=C(Nc2cccc3cc4ccccc4nc23)C(=O)c2ccccc21,-,-,H37Rv,-,MIC bound,BACTEC,>12.5 µg/mL
Nc1c(O)cc(S(=O)(=O)O)c2ccccc12,-,-,H37Rv,-,MIC,-,100 µg/mL
O=C(/C=C/c1ccccc1)c1cccc2ccccc12,-,12.5 µg/mL,H37Rv,-,inhibition,-,37%
CCOC(=O)Cc1ccccc1,-,-,H37Rv,-,MIC,-,>100 µg/mL
C=C(NC(=O)c1csc(-c2nc3c(cc2O)-c2nc(cs2)C(=O)N[C@@H]([C@@H](C)O)C(=O)N/C(=C(\C)OC)c2nc(cs2)C(=O)N[C@@H]2c4nc(cs4)C(=O)N[C@@H](COC(=O)c4c5c6c(cccc6n4O)COC(=O)[C@@H](O[C@H]4C[C@](C)(O)[C@H](N(C)C)[C@H](C)O4)[C@H]2OC5)c2nc-3cs2)n1)C(N)=O,Rifampicin- and isoniazid-resistant,-,Clinical isolate 565,-,MIC,broth dilution,≤25 µM
Fc1ccccc1CNCCNCCCCc1ccccc1,-,-,-,-,MIC,-,50 µM
OCCSCc1cc2c(O)c(c1)Cc1cc(CSCCO)cc(c1O)Cc1cc(CSCCO)cc(c1O)Cc1cc(CSCCO)cc(c1O)C2,-,-,H37Rv,-,MIC bound,BACTEC,>12.5 µg/mL
O=C(O)CCCCC(Cl)C(=O)O,-,-,H37Rv,-,MIC,-,>100 µg/mL
CO[C@H]1/C=C/O[C@@]2(C)Oc3c(C)c(O)c4c(=O)c(c5oc6cc(N7CCN(CC(C)C)CC7)cc(=O)c6nc5c4c3=C2O)NC(=O)/C(C)=C\C=C\[C@H](C)[C@H](O)[C@@H](C)[C@@H](O)[C@@H](C)[C@H](OC(C)=O)[C@@H]1C,-,-,TN801,-,MIC,-,<1 µg/mL
CO[C@H]1/C=C/O[C@@]2(C)Oc3c(C)c(O)c4c(O)c(c(/C=N/N5CCN(C)CC5)c(O)c4c3C2=O)NC(=O)/C(C)=C\C=C\[C@H](C)[C@H](O)[C@@H](C)[C@@H](O)[C@@H](C)[C@H](OC(C)=O)[C@@H]1C,-,-,Clinical isolate 30425,-,MIC,broth dilution,≤1 µM
Br.NCC(=O)NC(CO)C(=O)NCC(=O)Oc1ccc([N+](=O)[O-])cc1,-,12.8 µg/mL,H37Rv,-,inhibition,BACTEC,32%
CCCCCNCCNCc1ccc(OC)cc1OC,-,-,-,-,MIC,-,25 µM
O=C(Nc1ccc(/C=C/c2ccc(NC(=O)c3cc(S(=O)(=O)O)c4cccnc4c3O)cc2S(=O)(=O)O)c(S(=O)(=O)O)c1)c1cc(S(=O)(=O)O)c2cccnc2c1O,-,12.5 µg/mL,H37Rv,-,inhibition,BACTEC,0%
C[C@H]1C[C@H](N)CN1c1cc2c(cc1F)c(=O)c(C(=O)O)cn2-c1ccc(F)cc1F,-,-,DRUG-SUS,-,MIC90,-,4 µg/mL
Cc1cc(S(=O)(=O)Nc2nc(N)nc(N3N=CCC3C)n2)c(S)cc1Cl,-,-,H37Rv,-,MIC bound,BACTEC,>12.5 µg/mL
NC1CCN(c2nc3c(cc2F)c(=O)c(C(=O)O)cn3-c2ccc(F)cc2F)C1,-,-,ATCC 35823,-,MIC,-,>8 µg/mL
CC(Cc1ccc(Cl)cc1)NCCNCCCCc1ccccc1,-,-,-,-,MIC,-,50 µM
CO/C(C)=C1/NC(=O)[C@H]([C@@H](C)O)NC(=O)c2csc(n2)-c2cc(O)c(-c3nc(C(=O)NCCCN4CCOCC4)cs3)nc2-c2csc(n2)[C@@H]2COC(=O)c3c4c5c(cccc5n3O)COC(=O)[C@@H](O[C@H]3C[C@](C)(O)[C@H](N(C)C)[C@H](C)O3)[C@@H](OC4)[C@H](NC(=O)c3csc1n3)c1nc(cs1)C(=O)N2,Rifampicin- and isoniazid-resistant,-,Clinical isolate 10975,-,MIC,broth dilution,≤250 µM
CCOC(=O)/C(=C/Nc1cccc(Cl)c1)C(=O)Nc1ccccc1,-,-,H37Rv,-,MIC,-,>100 µg/mL
CC1=NN(c2ccc(/C=C/c3ccc(NC(=O)Nc4ccc(/C=C/c5ccc(N6N=C(C)C(N=Nc7ccccc7C(=O)O)C6=O)cc5S(=O)(=O)[O-])c(S(=O)(=O)[O-])c4)cc3S(=O)(=O)[O-])c(S(=O)(=O)[O-])c2)C(=O)C1N=Nc1ccccc1C(=O)O.[Na+].[Na+].[Na+].[Na+],-,12.8 µg/mL,H37Rv,-,inhibition,BACTEC,6%
COc1cc(CSc2nc(=O)[nH]c3nc[nH]c23)cc(OC)c1,-,6.25 µg/mL,H37Rv,-,inhibition,-,0%
O=C(Nc1ccccc1)c1cccc(S(=O)(=O)Nc2ccc3[nH]c(=S)[nH]c3c2)c1,-,-,H37Rv,-,MIC,-,50 µg/mL
NCCCCC(C(=O)NC(Cc1ccc(O)cc1)C(=O)NC(CO)C(=O)OCc1ccc([N+](=O)[O-])cc1)N(C(=O)OCc1ccccc1)C(=O)OCc1ccccc1,-,-,H37Rv,-,MIC,BACTEC,≥12.8 µg/mL
NS(=O)(=O)c1cccs1,-,-,H37Rv,-,MIC,-,>100 µg/mL
COc1ccc(OC)c(/C=N/NC(=O)CCCCCCCCC(=O)N/N=C/c2cc(OC)ccc2OC)c1,-,-,H37Rv,-,MIC bound,BACTEC,>12.5 µg/mL
CCOC(=O)c1[nH]c(C)c(C(C)=O)c1C,-,-,H37Rv,-,MIC,-,50 µg/mL
S=C(S)Nc1ccc(Cc2ccc(NC(=S)S)cc2)cc1,-,-,H37Rv,-,MIC bound,BACTEC,>12.5 µg/mL
O=C1CC(c2ccccc2)Oc2cc(I)ccc21,-,12.5 µg/mL,H37Rv,-,inhibition,-,9%
COc1cccc(Sc2nc(Cl)nc3nc[nH]c23)c1,-,6.25 µg/mL,H37Rv,-,inhibition,-,0%
CO[C@H]1/C=C/O[C@@]2(C)Oc3c(C)c(O)c4c(O)c(c(/C=N/N5CCN(C)CC5)c(O)c4c3C2=O)NC(=O)/C(C)=C\C=C\[C@H](C)[C@H](O)[C@@H](C)[C@@H](O)[C@@H](C)[C@H](OC(C)=O)[C@@H]1C,-,-,2S,-,MIC,-,1 µg/mL
Nc1ccc(C(=O)NCCO)cc1,-,-,H37Rv,-,MIC,-,100 µg/mL
C=CC1C(C[C@@H]2c3cc(O)c(O)cc3CCN2C(C)=O)C(C(=O)OC)=CO[C@H]1OC1OC(CO)C(O)C(O)C1O,-,-,H37Rv,-,MIC bound,BACTEC,>12.5 µg/mL
Cc1cccc(Sc2nc(Cl)nc3nc[nH]c23)c1,-,-,H37Rv,-,MIC90,-,>6.25 µg/mL
CO[C@H]1/C=C/O[C@@]2(C)Oc3c(C)c(O)c4c(O)c(c5c(c4c3C2=O)NC2(CCN(CC(C)C)CC2)N=5)=NC(=O)/C(C)=C\C=C\[C@H](C)[C@H](O)[C@@H](C)[C@@H](O)[C@@H](C)[C@H](OC(C)=O)[C@@H]1C,-,-,Strain 70 (L533P),-,MIC,-,0.25 µg/mL
NC(=O)CSSCC(N)=O,-,-,H37Rv,-,MIC bound,BACTEC,≤12.5 µg/mL
O=C1CC(c2ccc(Br)cc2)Oc2ccccc21,-,-,-,-,EC50,-,>12.5 µg/mL
O=C(NCO)NCO,-,-,H37Rv,-,MIC,-,>100 µg/mL
Cc1ccccc1CSc1ccncc1,-,-,H37Rv,-,MIC90,-,>6.25 µg/mL
Cc1c2oc3c(C)ccc(C(=O)NCCc4ccccn4)c3nc-2c(C(=O)NCCc2ccccn2)c(N)c1=O,-,-,H37Rv,-,MIC bound,BACTEC,>12.5 µg/mL
CN1c2ccccc2CCC1CCc1ccc2c(c1)OCO2,-,-,MT2,-,MIC,-,50 µg/mL
CCCCCCCCCCC/C=N/NC(=O)C(=O)N/N=C/CCCCCCCCCCC,-,12.5 µg/mL,H37Rv,-,inhibition,BACTEC,14%
O=C1CCCN1CCCNCCNCC(c1ccccc1)c1ccccc1,-,-,-,-,MIC,-,25 µM
CCC(O)C(CC(C)N(C)C)(c1ccccc1)c1ccccc1,-,-,H37Rv,-,MIC,-,>100 µg/mL
NC[C@H]1O[C@H](O[C@H]2[C@H](O)[C@@H](O[C@H]3O[C@H](CO)[C@@H](O)[C@H](N)[C@H]3O)[C@H](N)C[C@@H]2N)[C@H](O)[C@@H](O)[C@@H]1O,-,-,Isolate 13,-,MIC,-,2 µg/mL
COc1ccc(CNCCNCC(c2ccccc2)c2ccccc2)c(OC)c1,-,-,-,-,MIC,-,25 µM
Cc1ccc(Sc2ncccn2)cc1,-,-,H37Ra,-,MIC,-,>12.8 µg/mL
Nc1ccc(O)c(NC(=O)COc2ccccc2)c1,-,-,H37Rv,-,MIC,-,>100 µg/mL
Nc1nc(=O)[nH]s1,-,-,H37Rv,VERO,MIC,BACTEC,12.5 µg/mL
CN(C)C1CCC(OC(=O)c2ccc(N)cc2)CC1.Cl,-,-,H37Rv,-,MIC,-,>100 µg/mL
NNC(=O)c1ccncc1,-,-,PR146,-,MIC,-,2.5 µg/mL
CC1SC2=NC3=C(c4ccccc4C3=O)C(c3ccc(Br)cc3)N2C1=O,-,-,H37Rv,-,MIC bound,BACTEC,>12.5 µg/mL
CO[C@H]1/C=C/O[C@@]2(C)Oc3c(C)c(O)c4c(O)c(c(/C=N/N5CCN(C)CC5)c(O)c4c3C2=O)NC(=O)/C(C)=C\C=C\[C@H](C)[C@H](O)[C@@H](C)[C@@H](O)[C@@H](C)[C@H](OC(C)=O)[C@@H]1C,-,-,Isolate 16,-,MIC,-,<0.03 µg/mL
CCCCN(CCCC)Cc1cc(CN(CCCC)CCCC)c(O)c(CN(CCCC)CCCC)c1,-,-,H37Rv,-,MIC,-,50 µg/mL

A number after MIC or MFC names an inhibition level or a share of isolates. Blank or dashed fields: not listed here. Percent inhibition refers to the dose given; in toxicity tests it is the harm to the cells. MIC bound: limit read from a one-dose screen. ECn is the concentration giving n% inhibition of infection, replication or growth.